Assay results: article PMC4525294 (Nature Communications, 2015)

Target: MERS-CoV England1 RBD (residues 367–606) for crystallography (MERS-CoV, England1 strain (AFY13307), UniProt K9N5Q8)
Assay: crystal structure
Settings: both partners purified

B1: D12 Fab (Fab, V domains shown)
VH: EVKLVESGGGLVKPGGSLKLSCAASGFTFSSYAMSWVRQTPEKRLEWVATISSGGTYTYYPDSVKGRFTISRDNAENTLYLQMSSLRSEDTAMYYCVRDGNSMDYWGQGTSVTVSS
VL: DIQMTQTTSSLSASLGDRVTIICRASQDINNYLNWYQQKPDGTVKLLIYYTSRLHSGVPSRFSGSGSGSDYSLTISNLEQEDIATYFCQQANTLPPTFGAGTKLELR
notes: also called D12 antibody as an Fab; source: prepared from D12 with the Pierce Mouse IgG1 Fab kit, purified (Superdex S200)
- binding result: binds
